Laboratory results published in the supplement of paper PMC9931576.
Positions count from the first letter of the chain named. Human monoclonal antibodies against the spike receptor-binding domain (heavy:light variable regions). IC50 against pseudoviruses bearing the spike of naturally observed variants; lower = stronger; >10 µg/ml means not reached at the top dose. No active / inactive call. The stated detection limit is 0.0005 µg/ml; values near or below 0.001 µg/ml lie at the floor of the assay.

Columns and labels:
Test in all cases: pseudovirus neutralization IC50; higher = weaker neutralization
[1] = molecular target: SARS-CoV-2 Omicron BA.1 spike pseudovirus
Experimental: (§1)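 Single-round VSV luciferase pseudovirus mixed with antibody dilutions for 1 h and put on Huh-7 cells for about a day; IC50 from the dose curve.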

[2] = molecular target: SARS-CoV-2 Omicron BA.2 spike pseudovirus
Experimental: as §1

[3] = molecular target: SARS-CoV-2 Omicron BA.2.75 spike pseudovirus
Experimental: as §1

[4] = molecular target: SARS-CoV-2 Omicron BA.5 spike pseudovirus
Experimental: as §1

[5] = molecular target: SARS-CoV-2 Omicron BQ.1.1 spike pseudovirus
Experimental: as §1

[6] = molecular target: SARS-CoV-2 Omicron XBB spike pseudovirus
Experimental: as §1

[7] = molecular target: SARS-CoV-2 early D614G spike pseudovirus
Experimental: as §1

B1: BD56-952 (protein)
chain 1: EVQLVQSGVEVKKPGESLRISCKGSGYRFTSYWITWVRHMPGKGLEWMGRIDPSDSYTNYSPSFQGHVTISTDKSLTTAYLQWSSLKASDTAMYYCARHPDGSGSYFNYYFDYWGQGTLVTVSS
chain 2: QSVLTQPPSVSGAPGQRVTISCTGSSSNIGAGYYVHWYQQLPGTAPKLLIYGNNNRPSGVPDRFSGSKSGTSASLAITGLRAEDEADYYCQSCDSSLSGVFGTGTKVTVL
[1]
  pseudovirus neutralization IC50: 6.65 µg/mL
[2]
  pseudovirus neutralization IC50: 7.29 µg/mL
[3]
  pseudovirus neutralization IC50: 4.13 µg/mL
[4]
  pseudovirus neutralization IC50: 2.46 µg/mL
[5]
  pseudovirus neutralization IC50: > 10 µg/mL
[6]
  pseudovirus neutralization IC50: > 10 µg/mL
[7]
  pseudovirus neutralization IC50: > 10 µg/mL

B2: BD56-956 (protein)
chain 1: QVQLVESGGGVVQPGRSLTLSCSASGFIFTNYAMHWVRQAPGKGLEWVAVVSYNGLNQYYVDSVEGRFTVSRDNSRNTLSLQMNSLRPEDTAVYYCAKAAGTGWYDVFQYGMDVWGHGTTVAVSS
chain 2: QSVLTQPPSVSGAPGQRVTISCTGRSSNFGSGYDVHWYQQLPGTAPKLLIYGNNNRPSGVPDRFSGSKSGTSASLAITGLAAEDEADYYCQSYDSTLSTWVFGGGTKLTVL
[1]
  pseudovirus neutralization IC50: 0.488 µg/mL
[2]
  pseudovirus neutralization IC50: 0.534 µg/mL
[3]
  pseudovirus neutralization IC50: 0.474 µg/mL
[4]
  pseudovirus neutralization IC50: 0.613 µg/mL
[5]
  pseudovirus neutralization IC50: 1.56 µg/mL
[6]
  pseudovirus neutralization IC50: 1.3 µg/mL
[7]
  pseudovirus neutralization IC50: 0.194 µg/mL

B3: BD56-957 (protein)
chain 1: QVQLVESGGGVVQPGRSLRLSCVASGFTFSSYAVHWVRQAPGTGLEWVTVISYDGTNKYYADSVKGRFTITRDNSKNTLYLQMNSLRGEDTAVYYCARDQGSYGSGWSTVFYYAMDVWGQGTTVTVSS
chain 2: QSVLTQPPSVSAAPGQKVTISCSGGSSNIGNNYVSWYQQLPGTAPKLLIYDNYKRPSGIPDRFSGSRSGTSATLGITGLQTGDEADYYCGSWDSSLSAWVFGGGTELTVL
[1]
  pseudovirus neutralization IC50: 1.06 µg/mL
[2]
  pseudovirus neutralization IC50: 0.828 µg/mL
[3]
  pseudovirus neutralization IC50: > 10 µg/mL
[4]
  pseudovirus neutralization IC50: > 10 µg/mL
[5]
  pseudovirus neutralization IC50: > 10 µg/mL
[6]
  pseudovirus neutralization IC50: > 10 µg/mL
[7]
  pseudovirus neutralization IC50: > 10 µg/mL

B4: BD56-960 (protein)
chain 1: EVQLVESGGGLVKPGGSLRLSCAASGFTFNTYSMNWVRQAPGKGLEWVSSISGSSSNTYYADSVKGRFTISRDIAKSSLYLQMNSLRAEDTAVYYCVIEPSEWLRLRTGGSDPWGQGTLVTVSS
chain 2: DIQMTQSPSSLPASVGDRVTITCRASQTISYFLNWYQQKPGKAPKLLIYASSSLQSGVPSRFSGSGSGTDFTLTINSLQPEDSATYYCQQSYSTSWTFGQGTKVEIK
[1]
  pseudovirus neutralization IC50: 0.0214 µg/mL
[2]
  pseudovirus neutralization IC50: 0.391 µg/mL
[3]
  pseudovirus neutralization IC50: 0.0245 µg/mL
[4]
  pseudovirus neutralization IC50: > 10 µg/mL
[5]
  pseudovirus neutralization IC50: > 10 µg/mL
[6]
  pseudovirus neutralization IC50: > 10 µg/mL
[7]
  pseudovirus neutralization IC50: 0.00237 µg/mL

B5: BD56-961 (protein)
chain 1: QLQLHESGPGLVKPSETLSLTCTVPDGSMYSSSYYWGWIRQPPGRGLEWIGTIYFTGSTYYNPSLKSRVTISVDTSRNHFSLRLSSVTAADTAFYYCARGAHYYDSRHPVGAFDIWGQGRLVTVSS
chain 2: QSALTQPASVSGSPGQSITISCTGTSSDIGGDNYVSWYQQHPGKAPKLIIYDVNKRPSGVSNRFSGSKSDNTASLTISGLQAEDEADYSCTSYTSSSTYVFGTGTKVTVL
[1]
  pseudovirus neutralization IC50: 0.00149 µg/mL
[2]
  pseudovirus neutralization IC50: 0.000937 µg/mL
[3]
  pseudovirus neutralization IC50: 0.00125 µg/mL
[4]
  pseudovirus neutralization IC50: 3.24 µg/mL
[5]
  pseudovirus neutralization IC50: 3.13 µg/mL
[6]
  pseudovirus neutralization IC50: 3.85 µg/mL
[7]
  pseudovirus neutralization IC50: 0.00102 µg/mL

B6: BD56-964 (protein)
chain 1: EVQLVESGGGLVQPGRSLRLSCVASGFTFDDFALHWVRQAPGKGLEWVSGVSWNSGTIGYADSVKGRFIVSRDNAKNSLYLRMNSLRPEDTALYYCARDVVPSTRPGSDPYAFDIWGQGTMVTVSS
chain 2: QSALTQPASVSGSPGQSITISCTGTSSDVGDYNYVSWYQQFPGKAPKLMIYDVSKRPSGVSNRFSGSKSGTTASLTISGLQVEDDTFFYCSSYTSSSTVLFGGGTKLTVL
[1]
  pseudovirus neutralization IC50: 0.17 µg/mL
[2]
  pseudovirus neutralization IC50: 0.191 µg/mL
[3]
  pseudovirus neutralization IC50: 0.398 µg/mL
[4]
  pseudovirus neutralization IC50: 0.479 µg/mL
[5]
  pseudovirus neutralization IC50: > 10 µg/mL
[6]
  pseudovirus neutralization IC50: > 10 µg/mL
[7]
  pseudovirus neutralization IC50: 0.0143 µg/mL

B7: BD56-968 (protein)
chain 1: QVQLVQSGGGVVQPGRSLRLSCAASGFTFSNYAMHWVRQAPGKGLEWVALISYDGGDQYYADSVKGRFTFSRDNSKNTLSLQINSLKAEDTAVYYCAKNGQGYGSSWYYFDYWGQGTLVTVSS
chain 2: DIQMTQSPSSLSASVGDRVTITCQASQDISSYLNWYQQKPGKAPKILIYDASNLEAGVPSRFSGSGSATDFTFTISSLQPEDIATYYCQQYDNFPPTFGQGTKLEIK
[1]
  pseudovirus neutralization IC50: 3.31 µg/mL
[2]
  pseudovirus neutralization IC50: 4.22 µg/mL
[3]
  pseudovirus neutralization IC50: 2.55 µg/mL
[4]
  pseudovirus neutralization IC50: 2.91 µg/mL
[5]
  pseudovirus neutralization IC50: 5.4 µg/mL
[6]
  pseudovirus neutralization IC50: 3.42 µg/mL
[7]
  pseudovirus neutralization IC50: 3.46 µg/mL

B8: BD56-969 (protein)
chain 1: QVQLVESGGGLVKPGGSLRLSCAASGFTFSDYYMGWVRQAPGKGLEWVSFISHTSGYTDYADSVKGRFTVSRDNAKDSLYLQMNSLRAEDTAVYYCARCGPFMVRGVIHAVEYFHHWGQGTLVTVSS
chain 2: EIVLTQSPGTLSLSPGERASLSCRASQTINNNHLAWYQQKPGQAPRLLIFGASSRATGIPDRFDGSGSGTDFTLTISRLEPEDFAVFYCQQYGNSPVTFGGGTKVEIK
[1]
  pseudovirus neutralization IC50: 0.399 µg/mL
[2]
  pseudovirus neutralization IC50: 0.741 µg/mL
[3]
  pseudovirus neutralization IC50: 0.00165 µg/mL
[4]
  pseudovirus neutralization IC50: 1.24 µg/mL
[5]
  pseudovirus neutralization IC50: 1.72 µg/mL
[6]
  pseudovirus neutralization IC50: 3.9 µg/mL
[7]
  pseudovirus neutralization IC50: 0.00105 µg/mL

B9: BD56-970 (protein)
chain 1: EVQLVESGGGLIRPGGSLRLSCASSGFIVSRNYMSWVRQAPGKGLEWVSVIFSGGTTYYADSVKGRFTISRDNSKNTLYLQMNSLRAADTAVYYCARGGSGSPHQAEFDYWGQGTLVSVSS
chain 2: DIQMTQSPSSLSASVGDRVTITCRASQDISNCLAWFQQKPGKAPKSLIYAASSLQSGVPSKFSGNGYGTDFTLTISNLQPEDSATYYCQQCDSYPITFGQGTRLEIK
[1]
  pseudovirus neutralization IC50: 0.00383 µg/mL
[2]
  pseudovirus neutralization IC50: 0.00115 µg/mL
[3]
  pseudovirus neutralization IC50: 0.00334 µg/mL
[4]
  pseudovirus neutralization IC50: 0.000714 µg/mL
[5]
  pseudovirus neutralization IC50: 0.0882 µg/mL
[6]
  pseudovirus neutralization IC50: 1.24 µg/mL
[7]
  pseudovirus neutralization IC50: 0.00862 µg/mL

B10: BD56-973 (protein)
chain 1: QVQLVQSGAEVKKPGSSVKVSCKASGGTFSSHTISWVRQAPGQGLEWMGRIIPILAIANYAQTFQGRVTITADKSTSTAYMELSSLRFEDTAVYYCARASGCSSTGCTWYFDLWGRGTLVTVSS
chain 2: QSVLTQPPSVSGAPGQRVTISCTGSNSNIGAGYDVHWYQQVPGTAPKLLIYGNSNRPSGVPDRFSGSKSGTSASLAITGLQAEDEADYYCQSYDSGLSDSVFGTGTKVTVL
[1]
  pseudovirus neutralization IC50: 0.342 µg/mL
[2]
  pseudovirus neutralization IC50: 0.146 µg/mL
[3]
  pseudovirus neutralization IC50: 0.318 µg/mL
[4]
  pseudovirus neutralization IC50: > 10 µg/mL
[5]
  pseudovirus neutralization IC50: > 10 µg/mL
[6]
  pseudovirus neutralization IC50: 2.95 µg/mL
[7]
  pseudovirus neutralization IC50: 0.521 µg/mL

B11: CV07-283 (protein)
chain 1: QVQLVQSGAEVKKPGASAKVSCKASGYTFTGYYIHWVRQAPGQGLEWMGLINPISGGTNYAQKFQDRVTMTRDTSISTAYMELSRLRSDDTAVYYCVRGPFYYDSSGPLGGMDVWGQGTTVTVSS
chain 2: B5 chain 2 with S27G, I29V, D32Y, I49M, D52E, N54S, K55N, D70G, S89Y, T91S
[1]
  pseudovirus neutralization IC50: > 10 µg/mL
[2]
  pseudovirus neutralization IC50: > 10 µg/mL
[3]
  pseudovirus neutralization IC50: > 10 µg/mL
[4]
  pseudovirus neutralization IC50: > 10 µg/mL
[5]
  pseudovirus neutralization IC50: > 10 µg/mL
[6]
  pseudovirus neutralization IC50: > 10 µg/mL
[7]
  pseudovirus neutralization IC50: 0.0121 µg/mL

B12: BD56-1067 (protein)
chain 1: QVLLMESGGGVVQPGRSLRLSCVTSGFTFKTYGMHWVRQAPGKGLEWVAVIWYDGSNEYYVDSVKGRFTISRDNSKNTLYLQMNNLRVEDTGMYYCAKNQGQYASGNYYTPDYWGQGTLVTVSS
chain 2: DIQLTQSPSSLSASLGDRVTITCQASQDISNHLNWFQQKPGKAPKLLIYDASNLESGVPSRFSGSGSGTHFTFTVTSLRPEDIATYYCQNYDNLPLTFGGGTKVEIK
[1]
  pseudovirus neutralization IC50: > 10 µg/mL
[2]
  pseudovirus neutralization IC50: > 10 µg/mL
[3]
  pseudovirus neutralization IC50: > 10 µg/mL
[4]
  pseudovirus neutralization IC50: > 10 µg/mL
[5]
  pseudovirus neutralization IC50: > 10 µg/mL
[6]
  pseudovirus neutralization IC50: > 10 µg/mL
[7]
  pseudovirus neutralization IC50: > 10 µg/mL
